Pooled drug test results. Numbers come from NIAID ChemDB, via PubChem.

Shared fields: growth or infection tests; organism: Rhinovirus

ECn: concentration that inhibits the pathogen or its effect by n%. Blank or dashed fields: not listed here. Percent inhibition refers to the dose given; in toxicity tests it is the harm to the cells. Neighbouring rows are from separate reports.

compound | read-out | strain | dose | method | cells | result
CN(C)c1ccc(Cn2cnc3c(N(C)C)nc(C(F)(F)F)nc32)cc1 | inhibition | Serotype 15 | 8 µM | plaque count | M-HELA | 30%
CSc1nsc(-c2ccc(OS(=O)(=O)c3ccc(C)cc3)cc2)c1C#N | EC50 | Serotype 85 (group B) |  | cytopathic effect | HELA-OHIO | 0.3 µM
CSc1nsc(-c2ccc(OCc3ccccc3)cc2)c1C#N | EC50 | Serotype 9 (group B) |  | cytopathic effect | HELA-OHIO | 3 µM
O=S(=O)([O-])c1ccc(O)cc1 | inhibition |  | 50 µg/mL | cytopathic effect | Human embryonic lung cells | 0%
CCO/N=C/c1ccc(OCCC2CCN(c3ccc(Cl)nn3)CC2)cc1 | EC50 | FEB (ICAM-1 receptor group 3) |  | neutral red | KB | 0.019 µM
Fc1cccc(Nc2nc(C(F)(F)F)nc3c2ncn3Cc2ccc(C(F)(F)F)cc2)c1 | EC50 | Serotype 4 |  | plaque count | M-HELA | 40 µM
CCOC(=O)/C=C/[C@H](C[C@@H]1CCNC1=O)NC(=O)[C@@H](CC(=O)[C@@H](NC(=O)c1cc(C)on1)C(C)C)Cc1ccc(F)cc1 | EC50 | Isolate 1 |  | cytopathic effect / visual reading | OHIO HELA-I | 0.02 µg/mL
CSc1nsc(-c2ccc(OCCc3ccccc3)cc2)c1C#N | EC50 | Serotype 85 (group B) |  | cytopathic effect | HELA-OHIO | 1.25 µM
O=S(=O)(O)c1ccc2ccc(S(=O)(=O)O)cc2c1 | inhibition |  | 10 µg/mL | cytopathic effect | Human amnion AV3 cells | 10%
Cc1ccccc1Cn1cnc2c(N(C)C)nc(C(F)(F)F)nc21 | inhibition | Serotype 5 | 8 µM | plaque count | M-HELA | 40%
Cc1cc(-c2ccc(N=Nc3c(S(=O)(=O)O)cc4cc(S(=O)(=O)O)cc(N)c4c3O)c(C)c2)ccc1N=Nc1c(S(=O)(=O)O)cc2cc(S(=O)(=O)O)cc(N)c2c1O | inhibition |  | 50 µg/mL | cytopathic effect | Human embryonic lung cells | 30%
CSc1nsc(-c2ccc(OCCOc3ccc(C#N)cc3)cc2)c1C#N | EC50 | Serotype 9 (group B) |  | cytopathic effect | HELA-OHIO | >2 µM
CSc1nsc(-c2ccc(OC(C)(C)C)cc2)c1C#N | EC50 | Serotype 72 (group A) |  | cytopathic effect | HELA-OHIO | >40 µM
O=C(Nc1cc(S(=O)(=O)O)cc2cc(S(=O)(=O)O)cc(O)c12)c1ccccc1 | inhibition |  | 10 µg/mL | cytopathic effect | Human amnion AV3 cells | 5%
Fc1cccc(Cn2cnc3c(Nc4cccc(F)c4)nc(C(F)(F)F)nc32)c1 | EC50 | Serotype 9 |  | plaque count | M-HELA | 1.4 µM
CSc1nsc(-c2ccc(OCc3ccccc3)cc2)c1C#N | EC50 | Serotype 59 (group B) |  | cytopathic effect | HELA-OHIO | 12 µM
O=S(=O)(O)c1ccc(N=Nc2c(O)ccc3cc(S(=O)(=O)O)ccc23)cc1 | inhibition |  | 5 µg/mL | cytopathic effect | Human embryonic lung cells | 20%
CN(C)c1nc(C(F)(F)F)nc2c1ncn2Cc1ccc(Cl)cc1Cl | inhibition | Serotype 15 | 8 µM | plaque count | M-HELA | 10%
Cc1cc(CCCCCOc2c(Cl)cc(C3=NCCO3)cc2Cl)on1 | EC50 | TYPE 41 |  | plaque count | HeLa | 0.41 µg/mL
CSc1nsc(-c2ccc(OCCCc3ccccc3)cc2)c1C#N | EC50 | Serotype 9 (group B) |  | cytopathic effect | HELA-OHIO | 5 µM
CN(C)c1nc(C(F)(F)F)nc2c1ncn2Cc1ccccc1 | inhibition | Serotype 31 | 8 µM | plaque count | M-HELA | 37%

The first 3 rows once more:

compound | read-out | strain | dose | method | cells | result
CN(C)c1ccc(Cn2cnc3c(N(C)C)nc(C(F)(F)F)nc32)cc1 | inhibition | Serotype 15 | 8 µM | plaque count | M-HELA | 30%
CSc1nsc(-c2ccc(OS(=O)(=O)c3ccc(C)cc3)cc2)c1C#N | EC50 | Serotype 85 (group B) |  | cytopathic effect | HELA-OHIO | 0.3 µM
CSc1nsc(-c2ccc(OCc3ccccc3)cc2)c1C#N | EC50 | Serotype 9 (group B) |  | cytopathic effect | HELA-OHIO | 3 µM